Anti-infective test results gathered from many reports (values: NIAID ChemDB through PubChem).

Shared fields: enzyme or target tests; protein: CCR5; read by: radioligand binding / binding; measure: IC50

Neighbouring rows are from separate reports. ICn is the concentration giving n% inhibition.

{"SMILES": "CN(CC(CCN1CCC(c2ccccc2)CC1)c1ccccc1)S(=O)(=O)c1ccccc1", "result": "0.12 µM"}
{"SMILES": "CCCC(CCN1CCC(c2ccccc2)CC1)CN(C)S(=O)(=O)c1ccccc1", "result": ">10 µM"}
{"SMILES": "CN(CC(C)(CCN1CCC(c2ccccc2)CC1)c1ccccc1)S(=O)(=O)c1ccccc1", "result": "0.042 µM"}
{"SMILES": "C/C=C\\CN(C(=O)OCc1ccccc1)C1CCN(CCC(C)(CN(C)S(=O)(=O)c2ccccc2)c2ccccc2)CC1", "result": "0.004 µM"}
{"SMILES": "CCN(C(=O)OCc1ccccc1)C1CCN(CCC(COC(C)=O)(CN(C)S(=O)(=O)c2ccccc2)c2ccccc2)CC1", "result": "0.013 µM"}
{"SMILES": "CCN(C(=O)OCc1ccc([N+](=O)[O-])cc1)C1CCN(CC[C@](C)(CN(C)S(=O)(=O)c2ccccc2)c2ccccc2)CC1", "result": "0.002 µM"}
{"SMILES": "CCN(C(=O)OCc1ccccc1)C1CCN(CCC(COCC[Si](C)(C)C)(CN(C)S(=O)(=O)c2ccccc2)c2ccccc2)CC1", "result": ">0.1 µM"}
{"SMILES": "CN(C[C@@H](CCN1CCC2(CC1)CS(=O)c1ccccc12)c1cccc(Cl)c1)S(=O)(=O)c1ccccc1", "result": "0.01 µM"}
{"SMILES": "Cc1ccc(-c2ccc3c(c2)C=C(C(=O)Nc2ccc(C[N+](C)(C)C4CCOCC4)cc2)CCC3)cc1", "result": "0.0014 µM"}
{"SMILES": "CN(CC(c1ccccc1)N1CCC(c2ccccc2)CC1)S(=O)(=O)c1ccccc1", "result": ">10 µM"}
{"SMILES": "COc1cccc(C(CCN2CCC(c3ccccc3)CC2)CN(C)S(=O)(=O)c2ccccc2)c1", "result": "<10 µM"}
{"SMILES": "C=CCN(C(=O)OCc1ccc([N+](=O)[O-])cc1)C1CCN(CC[C@](C)(CN(C)S(=O)(=O)c2ccccc2)c2ccccc2)CC1", "result": "0.001 µM"}
{"SMILES": "CN(C[C@@H](CCN1CCC2(CC1)CN(S(C)(=O)=O)c1ccccc12)c1ccc(Cl)c(Cl)c1)S(=O)(=O)c1ccccc1", "result": "0.5 µM"}
{"SMILES": "C=C(Cl)CN(C(=O)OCc1ccccc1)C1CCN(CCC(C)(CN(C)S(=O)(=O)c2ccccc2)c2ccccc2)CC1", "result": "0.005 µM"}
{"SMILES": "CN(CC(CCN1CCC2(CC1)CSc1ccccc12)C1CCCCC1)S(=O)(=O)c1ccccc1", "result": "<10 µM"}
{"SMILES": "C=CCN(C(=O)OCc1ccccc1)C1CCN(CC[C@](CO)(CN(C)S(=O)(=O)c2ccccc2)c2ccccc2)CC1", "result": "0.0006 µM"}
{"SMILES": "CCCN(C(=O)Nc1ccccc1)C1CCN(CCC(CN(C)S(=O)(=O)c2ccccc2)c2ccccc2)CC1", "result": "0.003 µM"}
{"SMILES": "COc1ccc(C(CCN2CCC(c3ccccc3)CC2)CN(C)S(=O)(=O)c2ccccc2)cc1", "result": "<10 µM"}
{"SMILES": "CCCCCCN(c1ccccn1)C1CCN(C[C@H]2CN(C(=O)C3CCCCC3)C[C@@H]2c2ccccc2)CC1", "result": "<1 µM"}
{"SMILES": "CCN(C(=O)OCc1ccccc1)C1CCN(CC[C@@](C)(CN(C)S(=O)(=O)c2ccccc2)c2ccccc2)CC1", "result": "0.165 µM"}
{"SMILES": "CN(CC(C)(CCN1CCC(N(C/C=C/Cl)C(=O)OCc2ccccc2)CC1)c1ccccc1)S(=O)(=O)c1ccccc1", "result": "0.009 µM"}
{"SMILES": "CN(C[C@@H](CCN1CCC(O)(c2ccccc2)CC1)c1cccc(Cl)c1)S(=O)(=O)c1ccccc1", "result": "0.1 µM"}
{"SMILES": "CCOC(=O)OCC(CCN1CCC(N(CC)C(=O)OCc2ccccc2)CC1)(CN(C)S(=O)(=O)c1ccccc1)c1ccccc1", "result": "0.053 µM"}
{"SMILES": "CN(CCCc1ccccc1)CC[C@H](CN(C)S(=O)(=O)c1ccccc1)c1cccc(Cl)c1", "result": ">10 µM"}
{"SMILES": "CCN(C(=O)OCc1ccccc1)C1CCN(CCC(CN(C)S(=O)(=O)c2ccccc2)c2ccccc2)CC1", "result": "0.002 µM"}

The last 2 rows once more:

SMILES | result
CN(CCCc1ccccc1)CC[C@H](CN(C)S(=O)(=O)c1ccccc1)c1cccc(Cl)c1 | >10 µM
CCN(C(=O)OCc1ccccc1)C1CCN(CCC(CN(C)S(=O)(=O)c2ccccc2)c2ccccc2)CC1 | 0.002 µM